Measured values from patent publication US20200345733A1, “Microbicidal Pyrimidine or Triazine Containing Compounds” (Janssen Sciences Ireland UC, priority 2002, published 2020).

Tested on: HIV Ba-L
Assay: Prevention of HIV Ba-L infection in MO-DC/CD4(+) T cell co-cultures (ELISA, secondary culture, PCR)
Format: cell-based
Procedure: For experiments with CEM T cells, we used the lymphotropic SI/X4 HIV strain HTLV-IIIB, originally obtained from R. C. Gallo and M. Popovic (NIH, Bethesda, Md.). For experiments with monocyte-derived dendritic cells (MO-DC), the monotropic NSI/R5 HIV strain Ba-L, kindly provided by the NIH AIDS Research and Reference Reagent Program (Rockville, Md) was used. Ba-L stocks were grown and tittered on PHA/IL-2-stimulated peripheral blood mononuclear cells (PBMC) in complete medium, containing RPMI-1640 (Bio-Whittaker, Verviers, Belgium) and 10% bovine calf serum (Hyclone, Utah, US) (Peden K. Virological and Molecular Genetic Techniques for Studies of Established HIV Isolates. 1995, 21-45). The supernatant of these cultures were directly used as cell-free virus to infect MO-DC. To prepare cell-associated HIV Ba-L, non-stimulated PBMC (2×10^6 cells/ml) were incubated overnight with 10^−2 MOI (=multiplicity of infection) of HIV Ba-L in complete medium. Afterwards, cells were extensively washed, frozen in liquid nitrogen and thawed on the day of infection.
HIV antigen was detected using an in-house developed ELISA assay, of which the characteristics have been described (Beirnaert E, Willems B, Peeters M, Bouckaert A, Heyndrickx L, Zhong P et al. Design and Evaluation of an in-House HIV-1 (Group M and O), SIVmnd and SIVcpz Antigen Capture Assay. J Virol Methods 1998, 73: 65-70). The lower detection limit is about 200 pg/ml and the upper limit is about 25,000 pg/ml, as determined using a standard curve of Ba-L stock dilutions with known p24 content. The 50% Effective Concentration (EC50) was calculated by plotting HIV Ag concentration against drug concentration, followed by regression analysis on the linear part of the curve,
Cell-free HIV Ba-L was pre-incubated with a serial dilution of drug, ranging from 10,000 to 0.1 nM (final concentration), for 1 hour at 37° C. MO-DC were infected with drug-treated HIV at a multiplicity of infection (MOI) of 10^−3. After 2 hours (at 37° C.), MO-DC were washed (6×) and suspended at 4×10^5 cells/ml. 50 μl of MO-DC were dispensed in a 96-well cup, together with 50 μl of autologous CD4(+) T cells (2×10^6 cells/ml) and 100 μl of complete medium or 100 μl of drug (at the same concentration as for the pre-incubation). Half of the culture medium was refreshed twice weekly with complete medium, with or without drug. After 2 weeks of primary culture, supernatants were analysed by ELISA and cells were used for secondary cultures to check viral rescue. […]
To evaluate the effect of a 24-hours treatment, MO-DC and autologous CD4(+) T cells were suspended in complete medium at 4×10^4, resp. […] After 2 weeks of primary culture, supernatants were analysed by ELISA and cells were used for secondary cultures to check viral rescue. […]

Cc1cc(C)c(Nc2ccnc(Nc3ccc(C#N)cc3)n2)c(C)c1 [compound B, 4-[[4-[(2,4,6-trimethylphenyl)amino]-2-pyrimidinyl]amino]benzonitrile]
TI (Therapeutic Index: ISC50/EC50) (24 hours treatment, Cell-associated HIV): 395 | TI (Therapeutic Index: ISC50/EC50) (24 hours treatment, Cell-free HIV): 592 | TI (Therapeutic Index: ISC50/EC50) (Continuous treatment, Cell-associated HIV): >1,515 | TI (Therapeutic Index: ISC50/EC50) (Continuous treatment, Cell-free HIV): >15,150
